Compound potency records, mixed from different reports. Data source: NIAID ChemDB in PubChem.

Shared fields: tests in culture; species: Mycobacterium tuberculosis

Inhibition is in % at the dose shown (toxicity tests: loss of growth or viability). Lines come from different laboratories, so protocols vary. MIC bound comes from a single tested concentration. ECn is the concentration giving n% inhibition of infection, replication or growth. Fold resistance has wild type as its base. A number after MIC or MFC names an inhibition level or a share of isolates. Blank or dashed fields: not listed here.

compound	read by	read-out	setting	strain or isolate	cell line	tested at	mutations	value
C=CCN1C(=O)C(C)S/C1=N\N=C1/C(=O)Nc2ccccc21		EC50		H37Rv				>12 µg/mL
Cc1cc2c(cc1C)[n+](=O)c(C(=O)N1CCN(c3ccc([N+](=O)[O-])cc3)CC1)c(C)n2[O-]		MIC		H37Rv				>6.25 µg/mL
C=CCn1c(-c2cc3ccccc3oc2=O)cs/c1=N\N=C\c1ccc(O)c(OCC)c1		MIC		H37Rv				>12.5 µg/mL
NNC(=O)C1CC2c3ccccc3C1c1ccccc12	BACTEC	inhibition		H37Rv		12.5 µg/mL		-7%
O=C(Oc1cc(Cl)ccc1C(=O)Nc1ccc(Cl)c(Cl)c1)c1cnccn1		MIC	14 d	H37Rv 331/88				2 µM
COC(=O)C(=O)C(C(=O)c1cccc2ccccc12)c1nc2n(c1O)C(=N)N=N2	resazurin	MIC bound		H37Rv				>6.25 µg/mL
Cc1ccc(C(=O)/C=C/c2ccccc2)c(F)c1	resazurin	MIC	14 d	H37Rv				32 µg/mL
CCCCCOc1ccccc1NC(=O)OCC[NH+]1CCCC1		MIC		My 331/88				125 µM
Cc1nn(C(=O)c2ccncc2)c(C)c1N=Nc1ccc(S(=O)(=O)Nc2ncccn2)cc1	BACTEC	MIC bound		H37Rv				>12.5 µg/mL
C[C@H]1COc2c(N3CCN(C)CC3)c(F)cc3c(=O)c(C(=O)O)cn1c23		MIC		ATCC 35820				0.25 µg/mL
CCCCCCCCCCCCCCCCC(=O)NNC(=O)c1ccncc1	resazurin	MIC100		ATCC 27294 H37Rv				0.03 µg/mL
Cc1cc2c(cc1C)[n+](=O)c(C(=O)NC(C)(C)C)c(C)n2[O-]		inhibition		H37Rv		6.25 µg/mL		0%
N#C/C(=C\c1ccc(F)c(F)c1)n1nnc2ccccc21		MIC90		ATCC 27294				>100 µM
C/C(=N\NC(=S)SCc1ccccc1)c1ccccn1	BACTEC	inhibition		H37Rv		128 µg/mL		100%
O=[N+]([O-])c1ccc(C2=NOC(c3ccc(N4CCN(Cc5ccccc5)CC4)cc3)C2)o1		MIC		UT29				0.012 µg/mL
Cc1cc(OCCCCCCC[N+](C)(C)Cc2ccc([N+](=O)[O-])o2)c(C(C)C)cc1Cl	BACTEC	MIC bound		H37Rv				≤12.5 µg/mL
COc1ccc(N2CCN(C(=O)c3c(C)n([O-])c4cc(Cl)c(Cl)cc4[n+]3=O)CC2)cc1		MIC		H37Rv				>6.25 µg/mL
NC1CCN(c2c(F)cc3c(=O)c(C(=O)O)cn(C4CC4)c3c2Cl)C1		MIC		ATCC 35828				0.125 µg/mL
CC1Oc2cc3c(-c4c(O)cc(O)c5c(O)c6c(cc45)OC(C)C(C)C6=O)c(O)cc(O)c3c(O)c2C(=O)C1C	BACTEC	MIC bound		H37Rv				>12.5 µg/mL
O=C(/C=C/c1ccccc1)c1ccccc1	resazurin	MIC	14 d	H37Rv				32 µg/mL
CCCCOc1ccccc1NC(=O)OCC[NH+]1CCCC1		MIC		My 331/88				500 µM
Cc1c(C(=O)N2CCN(c3ccccc3)CC2)[n+](=O)c2cc(Cl)c(Cl)cc2n1[O-]		inhibition		H37Rv		6.25 µg/mL		0%
CCn1c(-c2cc3ccccc3oc2=O)cs/c1=N\N=C\c1ccc(Cl)cc1		EC50		H37Rv				>12.5 µg/mL
CCCCCCOc1cccc(NC(=O)OCCN(C)C)c1		MIC		My 331/88				16 µM
O=C(c1ccc([N+](=O)[O-])o1)N1CCc2cc(N3CCN(Cc4ccccc4)CC3)ccc2C1		MIC		UT18				0.006 µg/mL
Cc1c(C(=O)NC(C)(C)C)[n+](=O)c2cc(Cl)ccc2n1[O-]		MIC		H37Rv				>6.25 µg/mL
COc1ccc(C2CC(=O)N(c3ccncc3)C(=O)C2)cc1	resazurin	MIC bound		H37Rv				>6.25 µg/mL
CCCCCCCCOc1ccccc1NC(=O)OCC[NH+]1CCCC1		MIC		My 331/88				32 µM
Cc1cc2c(cc1C)[n+](=O)c(C(=O)Nc1ccccc1C)c(C)n2[O-]		inhibition		H37Rv		6.25 µg/mL		22%
O=C(/C=C/c1ccccc1Cl)c1ccc(F)cc1	MTT	MIC	7 d	H37Rv				32 µg/mL
CC(=O)NC[C@H]1CN(c2ccc(N3CCOCC3)c(F)c2)C(=O)O1		MIC		158 strains				>16 µg/mL
Cc1c(N)c(=O)[nH]c2ccccc12		EC50		H37Rv				>6.25 µg/mL
CC/C=C\C/C=C\C/C=C\CCCCCCCC(=O)NNC(=O)c1ccncc1	resazurin	MIC100		ATCC 35822 INHr				12.5 µg/mL
C/C=C1/C[C@@H](C)[C@@](C)(O)C(=O)OC[C@H]2CCN3CC[C@@H](OC1=O)[C@@H]23.O=C(O)[C@H](O)[C@@H](O)C(=O)O	BACTEC	MIC bound		H37Rv				>12.8 µg/mL
COc1cccc(/C=C/C(=O)c2ccc(F)cc2)c1F	MTT	MIC		H37Rv				32 µg/mL
Cc1nn(C(=S)S)c(C)c1N=Nc1ccccc1Cl	resazurin	MIC bound		H37Rv				<6.25 µg/mL
C=CCN=C(N=Nc1c(O)[nH]c2ccccc12)SCC(=O)c1ccc(Br)cc1		MIC		H37Rv				>12.5 µg/mL
O=c1oc2ccccc2cc1-c1cs/c(=N/N=C/c2ccc(Cl)cc2)n1C1CCCCC1		inhibition		H37Rv		12.5 µg/mL		75%
CC[C@H]1OC(=O)[C@H](C)[C@@H](O[C@H]2C[C@@](C)(OC)[C@@H](O)[C@H](C)O2)[C@H](C)[C@@H](O[C@@H]2O[C@H](C)C[C@H](N(C)C)[C@H]2O)[C@](C)(O)C[C@@H](C)CN(C)[C@H](C)[C@@H](O)[C@]1(C)O		MBC		ATCC35838				>8 µg/mL
O=C(Oc1cc(Cl)ccc1C(=O)Nc1ccc(C(F)(F)F)cc1)c1cnccn1		MIC		extensively drug resistant strain				29.44 µM
COc1cccc(C(=O)c2ccncc2)c1OC	resazurin	MIC bound		H37Rv				>6.25 µg/mL
CC[C@H]1OC(=O)[C@H](C)[C@@H](O[C@H]2C[C@@](C)(OC)[C@@H](O)[C@H](C)O2)[C@H](C)[C@@H](O[C@@H]2O[C@H](C)C[C@H](N(C)C)[C@H]2O)[C@](C)(OC)C[C@@H](C)C(=O)[C@H](C)[C@@H](O)[C@]1(C)O		MIC		ATCC 35830				>8 µg/mL
O=C(O)c1c2n(c3cc([N+](=O)[O-])c(N4CCC(N5CCCCC5)CC4)cc3c1=O)CS2	agar	MIC		H37Rv			MDR-TB	1.75 µM
CC1COc2c(N3CCN(C)CC3)c(F)cc3c(=O)c(C(=O)O)cn1c23		MBC		H37Rv				2 µg/mL
Cc1ccc2nc(-c3cccc([N+](=O)[O-])c3)c(N=O)n2c1		MIC		H37Rv	VERO			3.27 µg/mL
O=c1oc2ccccc2cc1-c1cs/c(=N\N=C\c2cc(Br)ccc2O)n1C1CCCCC1		EC50		H37Rv				<12.5 µg/mL
CN(CCO)/N=N/c1nc[nH]c1C(N)=O	BACTEC	MIC bound		H37Rv				≤12.5 µg/mL
NNC(=O)c1ccncc1		MIC		Isolate UT2007 (katG S315T mutation)				6 µg/mL
C=CCn1c(-c2cc3cc(Br)ccc3oc2=O)cs/c1=N\N=C\c1cc(Br)ccc1O		MIC		H37Rv				>12.5 µg/mL
CCc1ccc([C@H]2C[C@@H](C(F)(F)F)n3ncc(C(=O)NCc4ccc(OC)cc4)c3N2)cc1	fluorescence	fold resistance		H37Rv			MmpL3: Phe255Val	2
COc1ccccc1N1CCN(C(=O)c2c(C)n([O-])c3cc(C)c(C)cc3[n+]2=O)CC1		inhibition		H37Rv		6.25 µg/mL		0%
O=C1N(c2nncs2)CCN1[N+](=O)[O-]		MIC		INH-r				3.1 µg/mL
O=C(O)c1cn2c(n1)CN(c1cc3c(=O)c(C(=O)O)c4n(c3cc1F)CS4)CC2	agar	MIC		H37Rv				0.94 µM
Cc1c(-[n+]2ccccc2)c(=O)[nH]c2ccccc12		inhibition		H37Rv		6.25 µg/mL		0%
CC1(C)C[C@H]2C=C(C=O)[C@]34C[C@]3(C(=O)O[C@@H]4O)[C@H]2C1	BACTEC	MIC		H37Rv				≥12.5 µg/mL
CC(=O)Nc1c(OC(C)=O)nc2ccc(Cl)cc2c1-c1ccccc1		MIC		H37Rv				>6.25 µg/mL
CO[C@@H]1C[C@@H](C[C@H]2CC[C@H](C)[C@H]([C@@H](C)C(=O)O)O2)O[C@]2(O[C@](C)([C@H]3CC[C@@](C)([C@@H]4O[C@@H]([C@H]5O[C@@](O)(CO)[C@H](C)C[C@@H]5C)C[C@@H]4C)O3)C[C@H]2C)[C@@H]1C		MIC		TAC-R				3.1 µg/mL
N#C/C(=C/c1ccccc1[N+](=O)[O-])n1nnc2ccccc21		MIC90		ATCC 27294				>100 µM
CCOC(=O)N1CCN(c2ccc(C3CC(c4ccc([N+](=O)[O-])o4)=NO3)cc2)CC1		MIC		HN878				0.006 µg/mL
CO[C@H]1/C=C/O[C@@]2(C)Oc3c(C)c(O)c4c(=O)c(c5oc6cc(N7CCN(CC(C)C)CC7)cc(=O)c6nc5c4c3=C2O)NC(=O)/C(C)=C\C=C\[C@H](C)[C@H](O)[C@@H](C)[C@@H](O)[C@@H](C)[C@H](OC(C)=O)[C@@H]1C		MBC		2257 (rifampicin-susceptible)				0.015 µg/mL
N#C/C(=C\c1cccc(C#N)c1)n1nnc2ccccc21		MIC90		ATCC 27294				64.5 µM
CCN(CC)c1ccc2nc3ccc(N=Nc4ccc(O)cc4)cc3[n+](-c3ccccc3)c2c1.[Cl-]		MIC		H37Rv				6.25 µg/mL
N#C/C(=C\c1ccc(I)cc1)n1nnc2ccccc21		MIC90		ATCC 27294				33.3 µM
CNn1cc(C(=O)O)c(=O)c2cc(F)c(N3CCN(C)CC3)cc21		MIC90		22 isolates				4 µg/mL
NC(=O)c1cnc(Cl)cn1		MIC		ATCC 27294				16 µg/mL
O=C(Oc1ccc(Cl)cc1C(=O)Nc1cccc(C(F)(F)F)c1)c1cnccn1		MIC	21 d	extensively drug resistant Praha 131				2 µM
COc1cc2c(cc1OC)CN(c1cc3c(=O)c(C(=O)O)c4n(c3cc1[N+](=O)[O-])CS4)CC2	agar	MIC		H37Rv				0.83 µM
CCCCCCCCCCCCN1/C(=C/C=C/c2sc3ccccc3[n+]2CCCCCCCCCCCC)Sc2ccccc21	BACTEC	inhibition		H37Rv		6.25 µg/mL		97%
Cc1ccccc1NC(=O)c1c(C)n([O-])c2cc(Cl)c(Cl)cc2[n+]1=O		inhibition		H37Rv		6.25 µg/mL		100%
O=C(O)c1c2n(c3cc(F)c(N4CCN(Cc5ccc6c(c5)OCO6)CC4)cc3c1=O)CS2	agar	MIC		H37Rv				1.66 µM
COc1ccc(C(=O)/C=C/c2ccc(F)cc2Cl)cc1	resazurin	MIC	7 d	H37Rv				32 µg/mL
O=C(O)c1c2n(c3cc(F)c(N4CCSCC4)cc3c1=O)CS2	agar	MIC		H37Rv			MDR-TB	8.88 µM
Nc1c(-c2ccccc2)c2cc([N+](=O)[O-])ccc2[nH]c1=O		MIC		H37Rv				>6.25 µg/mL
COc1ccc(C(=O)/C=C/c2ccccc2Cl)cc1	MTT	MIC		H37Rv				32 µg/mL
C=CCNC(=S)N=Nc1c(O)[nH]c2ccc(Br)cc12		EC50		H37Rv				<12 µg/mL
O=C(Oc1ccc(Cl)cc1C(=O)Nc1ccc(Cl)c(Cl)c1)c1cnccn1		MIC	14 d	multidrug resistant 7357/1998				0.125 µM
N#C/C(=C/c1cccc(Br)c1)n1nnc2ccccc21		MIC90		ATCC 27294				>100 µM
CC(=O)Nc1ccc(/C=N/NC(N)=S)cc1F	resazurin	MIC90		H37Rv			Kanamycin-resistant	<0.1 µg/mL
NNC(=O)c1ccncc1	resazurin	MIC100		ATCC 35822 INHr				2 µg/mL
O=C(CSc1nc2ccc(Cl)cc2c(=O)n1-c1ccccc1)N=Nc1c(O)[nH]c2ccccc12		inhibition		H37Rv		12 µg/mL		61%
COC(=O)c1cnccn1		MIC	14 d	331/88				>500 µM
O=C(O)c1[nH]c(=O)[nH]c(=O)c1F	BACTEC	MIC		H37Rv				3.13 µg/mL
O=C(O)c1c2n(c3cc([N+](=O)[O-])c(N4CCC(O)(c5ccc(Cl)cc5)CC4)cc3c1=O)CS2	agar	MIC		H37Rv			MDR-TB	1.59 µM
COC(=O)c1oc(-c2ccccc2)c(-c2ccccc2)c1C(=O)OC	BACTEC	inhibition		H37Rv		12.5 µg/mL		6%
O=C(/C=C/c1ccccc1)c1ccc(F)cc1	resazurin	MIC	7 d	H37Rv				32 µg/mL
S=C(NCc1ccccc1)[S][Sn]([S]C(=S)NCc1ccccc1)([c]1ccccc1)[c]1ccccc1	BACTEC	MIC bound		H37Rv				≤128 µg/mL
CCCCCCCCOc1ccccc1NC(=O)OCCN1CCOCC1		MIC		My 331/88				32 µM

A second listing of 6 rows from above:

Cc1c(-[n+]2ccccc2)c(=O)[nH]c2ccccc12 ; read-out: inhibition ; strain or isolate: H37Rv ; tested at: 6.25 µg/mL ; value: 0%
COc1ccc(C2CC(=O)N(c3ccncc3)C(=O)C2)cc1 ; read by: resazurin ; read-out: MIC bound ; strain or isolate: H37Rv ; value: >6.25 µg/mL
C/C=C1/C[C@@H](C)[C@@](C)(O)C(=O)OC[C@H]2CCN3CC[C@@H](OC1=O)[C@@H]23.O=C(O)[C@H](O)[C@@H](O)C(=O)O ; read by: BACTEC ; read-out: MIC bound ; strain or isolate: H37Rv ; value: >12.8 µg/mL
Cc1nn(C(=S)S)c(C)c1N=Nc1ccccc1Cl ; read by: resazurin ; read-out: MIC bound ; strain or isolate: H37Rv ; value: <6.25 µg/mL
O=C(CSc1nc2ccc(Cl)cc2c(=O)n1-c1ccccc1)N=Nc1c(O)[nH]c2ccccc12 ; read-out: inhibition ; strain or isolate: H37Rv ; tested at: 12 µg/mL ; value: 61%
CO[C@H]1/C=C/O[C@@]2(C)Oc3c(C)c(O)c4c(=O)c(c5oc6cc(N7CCN(CC(C)C)CC7)cc(=O)c6nc5c4c3=C2O)NC(=O)/C(C)=C\C=C\[C@H](C)[C@H](O)[C@@H](C)[C@@H](O)[C@@H](C)[C@H](OC(C)=O)[C@@H]1C ; read-out: MBC ; strain or isolate: 2257 (rifampicin-susceptible) ; value: 0.015 µg/mL